PubChem BioAssay AID624099, ICCB-Longwood – 2012
This is one part, drawn at random, of about 21,000 reagents. In the full data, 497 (2.4%) were called active. 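Higher z means weaker E2 silencing; only reporter increases were scored, and knock-downs that hurt cell survival may mask genuine repressor factors.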 A number with no mark means an inactive call. The numbers tell different reagents against one gene apart. Reagent sequences are not shown.

Purpose: 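Host factors E2 relies on to silence an HPV18 LCR reporter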 (primary screen)
System: human C33A cervical carcinoma cells (HPV-negative) stably expressing BPV1 E2 and an HPV18 LCR luciferase reporter
Knock-down reagent: siRNA pool against human genes, 40 nM
Duration: 72 h
Measured: 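HPV18 LCR reporter light per well, converted to plate-wise z-scores that exclude control wells, and averaged over triplicate plates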
Reading the numbers: mean z-score and z-score: higher = stronger reporter signal, weaker E2 silencing
Rule for the call: 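Hit if mean z-score reaches 2 and two or more of three replicate z-scores also reach 2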

For HYCC2 (GeneID 285172), what does the deposit list?
mean z-score: 0.1; z-score, replicate A: 0.07; z-score, replicate B: -0.01; z-score, replicate C: 0.23

For CLEC5A (GeneID 23601), what was measured?
mean z-score: 1.63; z-score, replicate A: 1.2; z-score, replicate B: 1.67; z-score, replicate C: 2.01

For USP3 (GeneID 9960), what does the deposit list?
mean z-score: 0; z-score, replicate A: -0.23; z-score, replicate B: 0.22; z-score, replicate C: 0.02

Which result is listed for SCN4B (GeneID 6330)?
mean z-score: 0.47; z-score, replicate A: 0.12; z-score, replicate B: 0.54; z-score, replicate C: 0.76

With GPR139 (GeneID 124274), what does the deposit list?
mean z-score: -0.01; z-score, replicate A: 0.35; z-score, replicate B: 0.34; z-score, replicate C: -0.72

What is on record for HSD17B7 (GeneID 51478)?
mean z-score: -0.31; z-score, replicate A: 0.09; z-score, replicate B: -0.48; z-score, replicate C: -0.54

What is on record for ALDH1A3 (GeneID 220) #1?
mean z-score: -0.72; z-score, replicate A: -0.91; z-score, replicate B: -0.48; z-score, replicate C: -0.77

How did the screen score ALDH1A3 (GeneID 220) #2?
mean z-score: -0.25; z-score, replicate A: -0.46; z-score, replicate B: -0.41; z-score, replicate C: 0.12

Which result is listed for CIZ1 (GeneID 25792)?
mean z-score: 0.43; z-score, replicate A: 0.01; z-score, replicate B: 0.69; z-score, replicate C: 0.6

With CHI3L2 (GeneID 1117), what does the deposit list?
mean z-score: -0.11; z-score, replicate A: -0.31; z-score, replicate B: -0.02; z-score, replicate C: 0

How did the screen score CRCT1 (GeneID 54544)?
mean z-score: -1.15; z-score, replicate A: -1.02; z-score, replicate B: -1.18; z-score, replicate C: -1.26

For SH3KBP1 (GeneID 30011), what does the deposit list?
mean z-score: 0.25; z-score, replicate A: 0.37; z-score, replicate B: 0.07; z-score, replicate C: 0.32

For VARS2 (GeneID 57176), how do the results read?
mean z-score: -1.61; z-score, replicate A: -1.64; z-score, replicate B: -1.52; z-score, replicate C: -1.68

With ITPKC (GeneID 80271), how do the results read?
mean z-score: -0.97; z-score, replicate A: -1.15; z-score, replicate B: -1.06; z-score, replicate C: -0.71

2 of these entries in another layout:
{"gene":"GPR139 (GeneID 124274)","pool no.":1,"mean z-score":-0.01,"z-score, replicate A":0.35,"z-score, replicate B":0.34,"z-score, replicate C":-0.72}
{"gene":"HSD17B7 (GeneID 51478)","pool no.":1,"mean z-score":-0.31,"z-score, replicate A":0.09,"z-score, replicate B":-0.48,"z-score, replicate C":-0.54}

The results go on.
How did the screen score LOC401051 (retired record) (GeneID 401051)?
mean z-score: -0.72; z-score, replicate A: -0.46; z-score, replicate B: -1.33; z-score, replicate C: -0.37

With CDC42 (GeneID 998), what does the deposit list?
mean z-score: -0.32; z-score, replicate A: -0.33; z-score, replicate B: -0.3; z-score, replicate C: -0.32

With GLI3 (GeneID 2737), what was measured?
mean z-score: -1.14; z-score, replicate A: -0.82; z-score, replicate B: -1.38; z-score, replicate C: -1.22

What is on record for GNA14 (GeneID 9630)?
mean z-score: -0.31; z-score, replicate A: -0.53; z-score, replicate B: -0.18; z-score, replicate C: -0.21

With DIS3L2 (GeneID 129563), what was measured?
mean z-score: -0.4; z-score, replicate A: -0.45; z-score, replicate B: -0.39; z-score, replicate C: -0.36

For HTRA1 (GeneID 5654), how do the results read?
mean z-score: 0.93; z-score, replicate A: 1.29; z-score, replicate B: 0.51; z-score, replicate C: 0.99

With CLPX (GeneID 10845), how do the results read?
mean z-score: 0.87; z-score, replicate A: 0.75; z-score, replicate B: 0.72; z-score, replicate C: 1.15
